Compound potency records, mixed from different reports. Data source: NIAID ChemDB in PubChem.

Common to all: growth or infection tests; species: Poliovirus; measure: EC50

ECn: concentration that inhibits the pathogen or its effect by n%. a–b is a range or a potency band. Conditions beyond the fields shown may differ between rows.

smiles | strain or isolate | cell line | result
Clc1ccc2c(c1)C=C(c1ccccc1)CO2 | IA (TYPE 2) | HEP-2 | <10 µM
CC(=O)c1ccc2c(c1)Sc1cc(C(C)=O)ccc1O2 | TYPE 3 | BSC-1 | >10 µg/mL
N#Cc1c(-c2ccccc2)nsc1Cl | Type 1/Brunhilde | HEP-2 | >20 µM
Clc1ccc(C2=Cc3cc(Cl)ccc3OC2)cc1 | II (TYPE 2) | HEP-2 | >10 µM
CC(O)c1ccc2c(c1)Sc1ccccc1S2 | TYPE 3 | BSC-1 | 2–10 µg/mL
Cc1ccc(C(=O)CCCCOc2ccc(C3=NC(C)CO3)cc2)s1 | TYPE 1 | VERO | 28.01 µM
CC(=O)c1ccc2c(c1)S(=O)(=O)c1ccccc1O2 | TYPE 3 | BSC-1 | >10 µg/mL
CCOC(=O)c1ccc(OCCCCC(=O)c2ccc(C)s2)cc1 | TYPE 2 | VERO | 6.41 µM
CSc1nsc(-c2ccc(C(F)(F)F)cc2)c1C#N | Type 1/Brunhilde | HEP-2 | 1 µM
c1ccc(C2COc3ccccc3C2)cc1 | II (TYPE 2) | HEP-2 | >10 µM
Cc1ccc(C(=O)CCCCCCOc2ccc(C3=NC(C)(C)CO3)cc2)s1 | TYPE 3 | VERO | 4.93 µM
CSc1nsc(-c2ccc(OCc3ccccc3)cc2)c1C#N | Type 1/Brunhilde | HEP-2 | >50 µM
Cc1ccc(C(=O)CCCCOc2ccc(C3=N[C@@H](C)CO3)cc2)s1 | TYPE 2 | VERO | 2.26 µM
CSc1nsc(-c2ccc(OCCCOc3ccc(C#N)cc3)cc2)c1C#N | TYPE 1 | HEP-2/L-929/VERO | >2 µM
CSc1nsc(C2CCCCC2)c1C#N | Type 1/Brunhilde | HEP-2 | >50 µM
CCOC(=O)c1ccc(OCCCCOc2ccc(-c3snc(SC)c3C#N)cc2)cc1 | TYPE 1 | HEP-2/L-929/VERO | >2 µM
Cc1ccc(C(=O)CCCCCCOc2ccc(C3=NCCO3)cc2Cl)s1 | TYPE 2 | VERO | 6.23 µM
CC(=O)c1ccc2c(c1)Sc1ccccc1S2 | TYPE 3 | BSC-1 | 0.4–2 µg/mL
Clc1ccc(C2CCc3ccccc3O2)c(Cl)c1 | IB (TYPE 2) | HEP-2 | >10 µM
C/C(=N\O)c1ccc2c(c1)Sc1ccccc1O2 | TYPE 3 | BSC-1 | 0.4–2 µg/mL
CSc1nsc(-c2ccc(OCCCOc3ccccc3)cc2)c1C#N | TYPE 1 | HEP-2/L-929/VERO | 5 µM
Cc1ccc(C(=O)CCCCCCOc2ccc(C3=N[C@@H](C)CO3)cc2)s1 | TYPE 1 | VERO | >25.97 µM
Clc1ccc2c(c1)CC(c1ccccc1)CO2 | TYPE 2 | HEP-2 | >10 µM
CSc1nsc(-c2ccccc2Cl)c1C#N | Type 1/Brunhilde | HEP-2 | >5 µM
COC(C)c1ccc2c(c1)Sc1ccccc1O2 | TYPE 3 | BSC-1 | >10 µg/mL
Brc1ccc(C2=Cc3cc(Br)ccc3OC2)cc1 | IA (TYPE 2) | HEP-2 | >10 µM
CSc1nsc(-c2ccc(C)cc2)c1C#N | Type 1/Brunhilde | HEP-2 | 0.25 µM
CSc1nsc(-c2ccc(OCCCCOc3ccc(C#N)cc3)cc2)c1C#N | TYPE 1 | HEP-2/L-929/VERO | >2 µM
CC(C)(O)c1ccc2c(c1)Sc1ccccc1O2 | TYPE 3 | BSC-1 | 2–10 µg/mL

The last 3 rows once more:

smiles | strain or isolate | cell line | result
CSc1nsc(-c2ccc(C)cc2)c1C#N | Type 1/Brunhilde | HEP-2 | 0.25 µM
CSc1nsc(-c2ccc(OCCCCOc3ccc(C#N)cc3)cc2)c1C#N | TYPE 1 | HEP-2/L-929/VERO | >2 µM
CC(C)(O)c1ccc2c(c1)Sc1ccccc1O2 | TYPE 3 | BSC-1 | 2–10 µg/mL